Experimental data reported in publication PMC6010091, “Inhibition of the β-carbonic anhydrase from the dandruff-producing fungus Malassezia globosa with monothiocarbamates” (Journal of Enzyme Inhibition and Medicinal Chemistry, 2017).

The chains behind the UniProt entries cited, without tags or fusion partners. Residues count along the entry.
UniProt A8Q1N3, 1-241: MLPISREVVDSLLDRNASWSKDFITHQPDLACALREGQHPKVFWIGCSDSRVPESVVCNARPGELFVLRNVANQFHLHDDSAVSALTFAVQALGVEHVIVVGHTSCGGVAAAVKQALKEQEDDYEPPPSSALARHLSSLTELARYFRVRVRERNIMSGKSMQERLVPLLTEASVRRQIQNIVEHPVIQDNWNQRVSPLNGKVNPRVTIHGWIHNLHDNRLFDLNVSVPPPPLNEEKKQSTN

Target: MgCA (Malassezia globosa, UniProt A8Q1N3)
Test: stopped-flow CO2 hydration assay, Cheng-Prusoff
Type: biochemical
Details: read-out: KI^a / MgCA; pH 8.3, 10-20 mM TRIS, 20 mM NaBF4, 15 min preincubation at room temperature; tested form: Na salt

| SMILES | Ki |
| --- | --- |
| COc1ccc(CCNC(=O)S)cc1OC | 14.1 µM |
| CN1CCN(NC(=O)S)CC1 | 7.81 µM |
